The source of these data is patent US20250218531A1.

This test has as its target SARS-COV-2 Omicron Spike RBD (SARS-CoV-2) (UniProt P0DTC2). Put plainly: SPR.

Regarding Casirivimab (Fab), the Kd came out at 240 nM.
